Biological target: rNaV1.4 (Rattus norvegicus, UniProt P15390)
Conditions: for blockade of rNaV1.4: at 100 μM, whole cell patch-clamp, HEK293 cells; for Inhibitory Potency: potency against rNaV1.4 relative to GIIIA (= 1)

Sequences of proteins named here, by UniProt entry; tags and fusion partners are left off.
UniProt P15390, whole entry: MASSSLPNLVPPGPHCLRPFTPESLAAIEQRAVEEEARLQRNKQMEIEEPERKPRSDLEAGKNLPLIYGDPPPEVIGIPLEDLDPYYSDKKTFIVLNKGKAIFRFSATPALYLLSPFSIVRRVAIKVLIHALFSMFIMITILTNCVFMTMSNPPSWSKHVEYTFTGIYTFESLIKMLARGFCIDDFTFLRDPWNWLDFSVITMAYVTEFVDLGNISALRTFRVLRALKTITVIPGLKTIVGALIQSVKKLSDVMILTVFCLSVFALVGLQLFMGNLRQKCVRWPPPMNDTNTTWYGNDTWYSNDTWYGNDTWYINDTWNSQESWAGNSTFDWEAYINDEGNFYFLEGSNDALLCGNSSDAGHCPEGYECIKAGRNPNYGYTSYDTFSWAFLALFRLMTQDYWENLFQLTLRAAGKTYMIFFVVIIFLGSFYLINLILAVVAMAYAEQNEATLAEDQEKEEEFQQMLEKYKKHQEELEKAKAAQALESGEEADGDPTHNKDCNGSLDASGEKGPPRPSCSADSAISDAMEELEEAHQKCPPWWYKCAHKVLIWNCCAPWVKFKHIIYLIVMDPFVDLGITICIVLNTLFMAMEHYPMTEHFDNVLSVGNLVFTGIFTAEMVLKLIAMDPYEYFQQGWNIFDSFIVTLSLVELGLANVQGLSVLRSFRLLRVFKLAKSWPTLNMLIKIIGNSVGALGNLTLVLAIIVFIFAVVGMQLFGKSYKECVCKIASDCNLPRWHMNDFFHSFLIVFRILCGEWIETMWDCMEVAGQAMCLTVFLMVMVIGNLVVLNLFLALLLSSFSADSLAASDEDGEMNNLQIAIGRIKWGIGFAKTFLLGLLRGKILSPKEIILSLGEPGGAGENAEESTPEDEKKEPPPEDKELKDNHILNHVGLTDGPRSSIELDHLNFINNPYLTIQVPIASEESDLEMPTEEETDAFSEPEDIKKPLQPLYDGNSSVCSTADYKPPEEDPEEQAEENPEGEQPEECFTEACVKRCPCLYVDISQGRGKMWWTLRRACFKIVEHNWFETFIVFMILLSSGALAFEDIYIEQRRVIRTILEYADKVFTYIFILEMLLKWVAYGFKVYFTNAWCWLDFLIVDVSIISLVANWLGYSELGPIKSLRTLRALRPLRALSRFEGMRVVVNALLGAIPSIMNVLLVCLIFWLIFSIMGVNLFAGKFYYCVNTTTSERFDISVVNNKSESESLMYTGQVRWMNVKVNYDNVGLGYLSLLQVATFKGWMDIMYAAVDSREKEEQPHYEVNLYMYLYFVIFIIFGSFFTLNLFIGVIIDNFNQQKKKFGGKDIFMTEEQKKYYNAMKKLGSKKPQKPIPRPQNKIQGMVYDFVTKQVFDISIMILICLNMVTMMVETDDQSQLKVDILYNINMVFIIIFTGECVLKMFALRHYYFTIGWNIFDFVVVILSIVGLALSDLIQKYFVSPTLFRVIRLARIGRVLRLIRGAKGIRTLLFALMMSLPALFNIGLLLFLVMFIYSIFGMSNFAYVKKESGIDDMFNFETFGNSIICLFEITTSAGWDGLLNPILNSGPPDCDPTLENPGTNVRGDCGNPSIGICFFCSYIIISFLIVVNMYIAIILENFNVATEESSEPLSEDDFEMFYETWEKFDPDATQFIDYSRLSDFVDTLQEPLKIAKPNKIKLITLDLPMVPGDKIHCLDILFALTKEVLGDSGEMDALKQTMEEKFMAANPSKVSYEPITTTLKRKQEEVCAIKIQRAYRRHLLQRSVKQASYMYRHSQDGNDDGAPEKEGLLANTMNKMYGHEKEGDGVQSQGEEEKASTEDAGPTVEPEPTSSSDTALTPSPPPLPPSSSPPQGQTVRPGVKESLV

C[C@H](NC(=O)[C@H](C)NC(=O)[C@H](C)NC(=O)[C@H](CCCNC(=N)N)NC(=O)[C@H](CCC(N)=O)NC(=O)[C@@H]1C[C@@H](O)CN1C(=O)[C@H](CCCCN)NC(=O)[C@@H]1CSSC[C@H](NC(=O)[C@H](CC(=O)O)NC(=O)[C@@H](N)CCCNC(=N)N)C(=O)N[C@@H](C)C(=O)N[C@@H]([C@@H](C)O)C(=O)N2C[C@H](O)C[C@H]2C(=O)N2C[C@H](O)C[C@H]2C(=O)N[C@@H](CCCCN)C(=O)N[C@@H](CCCCN)C(=O)N[C@@H](C)C(=O)N[C@@H](CCCCN)C(=O)N[C@@H](CC(=O)O)C(=O)N[C@@H](CCCNC(=N)N)C(=O)N[C@@H](CCC(N)=O)C(=O)N1)C(N)=O
IC50: > 100 µM | blockade of rNaV1.4: did not exhibit any significant blockade | Inhibitory Potency: <0.0007

C[C@H](NC(=O)[C@H](C)NC(=O)[C@@H]1CSSC[C@H](NC(=O)[C@H](C)NC(=O)[C@H](CC(=O)O)NC(=O)[C@@H](N)CCCNC(=N)N)C(=O)N[C@@H]([C@@H](C)O)C(=O)N2C[C@H](O)C[C@H]2C(=O)N2C[C@H](O)C[C@H]2C(=O)N[C@@H](CCCCN)C(=O)N[C@@H](CCCCN)C(=O)N[C@@H](C)C(=O)N[C@@H](CCCCN)C(=O)N[C@@H](CC(=O)O)C(=O)N[C@@H](CCCNC(=N)N)C(=O)N[C@@H](CCC(N)=O)C(=O)N[C@@H](C)C(=O)N[C@@H](CCCCN)C(=O)N2C[C@H](O)C[C@H]2C(=O)N[C@@H](CCC(N)=O)C(=O)N[C@@H](CCCNC(=N)N)C(=O)N1)C(N)=O
IC50: > 100 µM | blockade of rNaV1.4: did not exhibit any significant blockade | Inhibitory Potency: <0.0007

C[C@H](NC(=O)[C@@H]1CSSC[C@@H]2NC(=O)[C@H](CCCCN)NC(=O)[C@H](CCCCN)NC(=O)[C@@H]3C[C@@H](O)CN3C(=O)[C@@H]3C[C@@H](O)CN3C(=O)[C@H]([C@@H](C)O)NC(=O)[C@@H](NC(=O)[C@H](C)NC(=O)[C@H](CC(=O)O)NC(=O)[C@@H](N)CCCNC(=N)N)CSSC[C@H](NC(=O)[C@H](CCCNC(=N)N)NC(=O)[C@H](CCC(N)=O)NC(=O)[C@@H]3C[C@@H](O)CN3C(=O)[C@H](CCCCN)NC(=O)[C@H](C)NC(=O)[C@H](CCC(N)=O)NC(=O)[C@H](CCCNC(=N)N)NC(=O)[C@H](CC(=O)O)NC(=O)[C@H](CCCCN)NC2=O)C(=O)N1)C(N)=O
IC50: 2.1 µM

C[C@H](NC(=O)[C@H](C)NC(=O)[C@@H]1CSSC[C@@H]2NC(=O)[C@@H](NC(=O)[C@H](CC(=O)O)NC(=O)[C@@H](N)CCCNC(=N)N)CSSC[C@H](NC(=O)[C@H](CCC(N)=O)NC(=O)[C@H](CCCNC(=N)N)NC(=O)[C@H](CC(=O)O)NC(=O)[C@H](CCCCN)NC(=O)[C@H](C)NC(=O)[C@H](CCCCN)NC(=O)[C@H](CCCCN)NC(=O)[C@@H]3C[C@@H](O)CN3C(=O)[C@@H]3C[C@@H](O)CN3C(=O)[C@H]([C@@H](C)O)NC2=O)C(=O)N[C@@H](CCCCN)C(=O)N2C[C@H](O)C[C@H]2C(=O)N[C@@H](CCC(N)=O)C(=O)N[C@@H](CCCNC(=N)N)C(=O)N1)C(N)=O
IC50: 15.8 µM

C[C@H](NC(=O)[C@@H]1CSSC[C@@H]2NC(=O)[C@H](CCCCN)NC(=O)[C@H](CCCCN)NC(=O)[C@@H]3C[C@@H](O)CN3C(=O)[C@@H]3C[C@@H](O)CN3C(=O)[C@H]([C@@H](C)O)NC(=O)[C@H](C)NC(=O)[C@@H](NC(=O)[C@H](CC(=O)O)NC(=O)[C@@H](N)CCCNC(=N)N)CSSC[C@H](NC(=O)[C@H](CCC(N)=O)NC(=O)[C@H](CCCNC(=N)N)NC(=O)[C@H](CC(=O)O)NC(=O)[C@H](CCCCN)NC2=O)C(=O)N[C@@H](CCCCN)C(=O)N2C[C@H](O)C[C@H]2C(=O)N[C@@H](CCC(N)=O)C(=O)N[C@@H](CCCNC(=N)N)C(=O)N[C@@H](C)C(=O)N1)C(N)=O
IC50: 3.3 µM

C[C@H](NC(=O)[C@@H]1CSSC[C@H](NC(=O)[C@H](CCCCN)NC(=O)[C@H](CCCCN)NC(=O)[C@@H]2C[C@@H](O)CN2C(=O)[C@@H]2C[C@@H](O)CN2C(=O)[C@@H](NC(=O)[C@H](C)NC(=O)[C@H](C)NC(=O)[C@H](CC(=O)O)NC(=O)[C@@H](N)CCCNC(=N)N)[C@@H](C)O)C(=O)N[C@@H](CCCCN)C(=O)N[C@@H](CC(=O)O)C(=O)N[C@@H](CCCNC(=N)N)C(=O)N[C@@H](CCC(N)=O)C(=O)N[C@@H](C)C(=O)N[C@@H](CCCCN)C(=O)N2C[C@H](O)C[C@H]2C(=O)N[C@@H](CCC(N)=O)C(=O)N[C@@H](CCCNC(=N)N)C(=O)N[C@@H](C)C(=O)N1)C(N)=O
IC50: > 100 µM | blockade of rNaV1.4: did not exhibit any significant blockade | Inhibitory Potency: <0.0007

C[C@H](NC(=O)[C@H](C)NC(=O)[C@H](C)NC(=O)[C@H](CCCNC(=N)N)NC(=O)[C@H](CCC(N)=O)NC(=O)[C@@H]1C[C@@H](O)CN1C(=O)[C@H](CCCCN)NC(=O)[C@H](C)NC(=O)[C@H](CCC(N)=O)NC(=O)[C@H](CCCNC(=N)N)NC(=O)[C@H](CC(=O)O)NC(=O)[C@H](CCCCN)NC(=O)[C@H](C)NC(=O)[C@H](CCCCN)NC(=O)[C@H](CCCCN)NC(=O)[C@@H]1C[C@@H](O)CN1C(=O)[C@@H]1C[C@@H](O)CN1C(=O)[C@@H](NC(=O)[C@H](C)NC(=O)[C@H](C)NC(=O)[C@H](CC(=O)O)NC(=O)[C@@H](N)CCCNC(=N)N)[C@@H](C)O)C(N)=O
IC50: > 100 µM | blockade of rNaV1.4: did not exhibit any significant blockade | Inhibitory Potency: <0.0007

From article PMC5128756, “The Role of Individual Disulfide Bonds of μ-Conotoxin GIIIA in the Inhibition of NaV1.4” (2016)
